From doi:10.1101/541805
pKd: −log10 of the molar value.

Columns and labels:
[1] = target: rat Kv2.1 in Kv2.1-CHO cells (tetracycline-inducible, stably transfected) (rat) (UniProt P15387)
[2] = target: rat Kv2.1 in Kv2.1-CHO cells (tetracycline-inducible, stably transfected) (rat) (UniProt P15387); experiment: fluorescence dose response on live cells
[3] = target: rat Kv2.1 in Kv2.1-CHO cells (tetracycline-inducible, stably transfected) (rat) (UniProt P15387); remark: listed apart in the source
[4] = target: rat Kv2.1 in Kv2.1-CHO cells (tetracycline-inducible, stably transfected) (rat) (UniProt P15387); remark: listed apart in the source
[5] = target: rat Kv2.1 in Kv2.1-CHO cells (tetracycline-inducible, stably transfected) (rat) (UniProt P15387); remark: listed apart in the source
[6] = target: rat Kv2.1-GFP (rat) (UniProt P15387)

Substance: GxTX-594 (guangxitoxin-1E Ser13Cys, Met35 norleucine, conjugated to Alexa 594) (from UniProt P84835 1-36) (peptide)
- kΔF at 0 mV, 27°C [1]: 0.028 s⁻¹
- kΔF at 0 mV, 37°C [1]: 0.075 s⁻¹
- pKd [2]: 7.57
- labeling left (F/Finit norm) after a step from −80 mV to +40 mV [3]: 10%
- labeling left (F/Finit norm) after a step from −80 mV to −40 mV [3]: 70%
- kΔF (rate of fluorescence change) at 0 mV [4]: 0.13 s⁻¹
- kΔF (rate of fluorescence change) at 40 mV [4]: 0.26 s⁻¹
- kΔF (rate of fluorescence change) at 80 mV [4]: 0.53 s⁻¹
- kΔF (rate of fluorescence change) at −40 mV [4]: 0.022 s⁻¹
- kΔF during the 40 mV step, basal surface, ROI 1 [5]: 0.043 s⁻¹
- kΔF during the 40 mV step, basal surface, ROI 2 [5]: 0.044 s⁻¹
- kΔF during the 40 mV step, basal surface, ROI 3 [5]: 0.057 s⁻¹
- kΔF during the 40 mV step, basal surface, ROI 4 [5]: 0.097 s⁻¹
- kΔF on return to −80 mV (labeling), basal surface, ROI 1 [5]: 0.00043 s⁻¹
- kΔF on return to −80 mV (labeling), basal surface, ROI 2 [5]: 0.00079 s⁻¹
- kΔF on return to −80 mV (labeling), basal surface, ROI 3 [5]: 0.0028 s⁻¹
- kΔF on return to −80 mV (labeling), basal surface, ROI 4 [5]: 0.0055 s⁻¹
- Pearson correlation coefficient (colocalization with GFP) [6]: 0.86
